Anti-infective test results gathered from many reports (values: NIAID ChemDB through PubChem).

Common to all: tests on isolated targets; agent: HIV-1; protein: Protease; read-out: IC50

Blank or dashed fields: not listed here. Rows are shuffled and stem from different studies. ICn: concentration for n% inhibition.

smiles,method,setting,result
CC[C@H](C)[C@@H]1NC(=O)[C@@H](NC[C@H](O)[C@H](Cc2ccccc2)NC(=O)[C@@H](NC(=O)[C@H](CC(C)C)NC(C)=O)C(C)C)Cc2ccc(cc2)OCCCNC1=O,fluorescence,,0.002 µM
O=C(O)CCCCCCCCCCCCCCC(=O)O,fluorescence,,>1000 µM
CC(C)(C)OC(=O)N1Cc2ccccc2C[C@H]1[C@H](O)CNC[C@@H](O)[C@@H]1Cc2ccccc2CN1C(=O)OC(C)(C)C,HPLC,pH 5.5,>10 µM
Cc1cn([C@H]2C[C@H](N=[N+]=[N-])[C@@H](COC(=O)CCCCC(=O)O/N=C3\CC[C@]4(C)[C@H]5CC=C6[C@@H]7CC(C)(C)CC[C@]7(C(=O)O)CC[C@@]6(C)[C@]5(C)CC[C@H]4C3(C)C)O2)c(=O)[nH]c1=O,HPLC,,1.9 µM
O=C(O)CCCCCC(=O)O,fluorescence,,>1000 µM
CC[C@H](C)[C@H](NC(=O)[C@@H]1CCCN1C[C@@H](O)[C@H](Cc1ccccc1)NC(=O)[C@H](CC(N)=O)NC(=O)[C@H](CC(C)C)NC(C)=O)C(=O)N[C@H](C(N)=O)C(C)C,fluorescence,,0.06 µM
COC(=O)[C@]12CCC(C)(C)CC1C1=CCC3[C@@]4(C)CC[C@@H](N)C(C)(C)C4CC[C@@]3(C)[C@]1(C)CC2,HPLC,,>20 µM
CC(C)(C)NC(=O)[C@@H]1CCCN1C(=O)C(=O)[C@H](Cc1ccccc1)NC(=O)[C@H](CC(N)=O)NC(=O)OCc1ccccc1,HPLC,,0.064 µM
CC(C)(C)OC(=O)N[C@@H](Cc1ccccc1)[C@H](O)CNC[C@@H](O)[C@H](Cc1ccccc1)NC(=O)C(C)(C)CO,HPLC,pH 5.5,~10 µM
Cc1ccc(C[C@H](NC(=O)c2cccc(O)c2C)[C@H](O)C(=O)N2CSC(C)(C)[C@H]2C(=O)NCc2ccccc2C)cc1,HPLC,,<0.05 µg/mL
CCCCCCCCCCCCCCCC(=O)N[C@@H](Cc1ccccc1)C(=O)N[C@@H](CO)C(=O)N[C@H](C(=O)N[C@@H](CCC(=O)O)C(=O)N[C@@H](CC(C)C)C(=O)O)c1ccc(OC(=O)c2ccccc2)cc1,fluorescence,,0.1 µM
O=C(N[C@@H](Cc1ccccc1)[C@H](Cc1ccccc1)n1cc(CN2CCC(O)(c3ccccc3)CC2)nn1)OC1CCCC1,fluorescence,,>5 µM
CC[C@H](C)C(NC(=O)[C@@H]1CCCN1C[C@H](O)[C@@H]1Cc2ccc(cc2)OCC(=O)NCC(=O)N[C@@H](CC(N)=O)C(=O)N1)C(=O)N[C@H](C(N)=O)C(C)C,fluorescence,,0.037 µM
CC(C)[C@H](NC(=O)OC(C)(C)C)C(=O)N[C@@H](Cc1ccccc1)[C@H](O)CNC[C@@H](O)[C@H](Cc1ccccc1)NC(=O)[C@@H](NC(=O)OC(C)(C)C)C(C)C,HPLC,pH 5.5,>10 µM
COC(=O)N[C@H](C(=O)N[C@@H](Cc1ccccc1)[C@@H](O)CN(Cc1ccc(-c2ccccn2)cc1)NC(=O)[C@@H](NC(=O)OC)C(C)(C)C)C(C)(C)C,substrate cleavage / fluorescence,,0.00002 µM
COc1ccc(C[C@H](NC(=O)c2ccc(F)c(O)c2C)[C@H](O)C(=O)N2CSC(C)(C)[C@H]2C(=O)NCc2ccccc2C)cc1,HPLC,,<0.05 µg/mL
O=C(N[C@@H](Cc1ccccc1)[C@H](Cc1ccccc1)n1cc(CN2CCN(C3CCCCC3)CC2)nn1)OC1CCCC1,fluorescence,,>5 µM
Cc1cn([C@H]2C[C@H](N=[N+]=[N-])[C@@H](COC(=O)CCCCC(=O)N[C@H]3CC[C@]4(C)[C@H]5CC=C6[C@@H]7CC(C)(C)CC[C@]7(C(=O)O)CC[C@@]6(C)[C@]5(C)CC[C@H]4C3(C)C)O2)c(=O)[nH]c1=O,HPLC,,1.2 µM
CCCOc1ccc(C[C@H](NC(=O)c2cccc(O)c2C)[C@H](O)C(=O)N2CSC(C)(C)[C@H]2C(=O)NCc2ccccc2C)cc1,HPLC,,<0.05 µg/mL
CCN(Cc1cccc(S(=O)(=O)[O-])c1)c1ccc(C(=C2C=CC(=[N+](CC)Cc3cccc(S(=O)(=O)O)c3)C=C2)c2ccc(S(=O)(=O)O)cc2)cc1,fluorescence,,12 µM
C/C=C(/C)C(=O)O[C@H]1[C@H](O)C(C)(C)C[C@H]2C3=CC[C@@H]4[C@@]5(C)CC[C@H](O[C@@H]6O[C@H](C(=O)O)[C@@H](O[C@@H]7O[C@H](CO)[C@@H](O)[C@H](O)[C@H]7O)[C@H](O)[C@H]6O[C@@H]6O[C@H](CO)[C@@H](O)[C@H](O)[C@H]6O)[C@](C)(CO)[C@@H]5CC[C@@]4(C)[C@]3(C)C[C@@H](O)[C@]21COC(C)=O,HPLC,,>100 µM
O=C(COc1ccccc1)NC[C@H]1O[C@@H]1[C@@H](O)[C@H](Cc1ccccc1)NC(=O)COc1ccccc1,fluorescence,,150 µM
Cc1ccc(C(C)(C)C)c(SC2=C(O)CC(CCc3ccc(O)cc3)(C3CCCCC3)OC2=O)c1,HPLC,,0.03311 µM
CC(C)(C)OC(=O)N[C@@H](Cc1ccccc1)[C@H](O)CNC[C@@H](O)[C@H](Cc1ccccc1)NC(=O)OC(C)(C)CCCO,HPLC,pH 5.5,<10 µM
O=C(N[C@@H](Cc1ccccc1)[C@H](Cc1ccccc1)n1cc(CN2CCN(c3cnccn3)CC2)nn1)OC1CCCC1,fluorescence,,>5 µM
CCCCCCCCCCCCCCCC(=O)N[C@H](C(=O)N[C@@H](CCC(=O)O)C(=O)N[C@@H](CC(C)C)C(=O)O)c1ccc(OC(=O)c2ccccc2)cc1,fluorescence,,~0.1 µM
CNCC(=O)N(CC(=O)NC12NC(=O)C3(O)C4C5CC(C6C5C3C61)C42)C(C)C,absorbance,,10 µM
C/C=C(/C)C(=O)O[C@H]1[C@H](O)[C@]2(COC(C)=O)[C@H](O)C[C@]3(C)C(=CC[C@@H]4[C@@]5(C)CC[C@H](O[C@@H]6O[C@H](C(=O)O)[C@@H](O[C@@H]7O[C@H](CO)[C@@H](O)[C@H](O)[C@H]7O)[C@H](O)[C@H]6O[C@@H]6O[C@H](CO)[C@@H](O)[C@H](O)[C@H]6O)[C@](C)(CO)[C@@H]5CC[C@]43C)[C@@H]2CC1(C)C,HPLC,,>100 µM
CC(=O)N[C@@H](Cc1ccc(O)cc1)C(=O)N[C@@H](CCC(=O)O)C(=O)N[C@@H](CC(C)C)C(=O)O,fluorescence,,34 µM
CC[C@H](C)[C@@H]1NC(=O)[C@@H](NC[C@@H](O)[C@H](Cc2ccc(OCC(=O)OC)cc2)NC(=O)OC(C)(C)C)Cc2ccc(cc2)OCCCNC1=O,fluorescence,,0.015 µM
CC(C)(C)OC(=O)N[C@@H](Cc1ccccc1)[C@H](O)CNC[C@@H](O)[C@H](Cc1ccc(OCC(=O)N2CCOCC2)cc1)NC(=O)OC(C)(C)C,substrate cleavage,,0.075 µM
Cc1ccccc1CNC(=O)[C@H]1N(C(=O)[C@@H](O)[C@H](Cc2ccc3c(c2)OCO3)NC(=O)c2cccc(N)c2Cl)CSC1(C)C,HPLC,,<0.05 µg/mL
C/C=C(\C)C(=O)OC[C@@]12[C@H](O)C[C@]3(C)C(=CC[C@@H]4[C@@]5(C)CC[C@H](O[C@@H]6O[C@H](C(=O)O)[C@@H](O[C@@H]7O[C@H](CO)[C@@H](O)[C@H](O)[C@H]7O)[C@H](O)[C@H]6O[C@@H]6O[C@H](CO)[C@@H](O)[C@H](O)[C@H]6O)[C@](C)(CO)[C@@H]5CC[C@]43C)[C@@H]1CC(C)(C)[C@@H](O)[C@@H]2O,HPLC,,>100 µM
O=C(N[C@@H](Cc1ccccc1)[C@H](Cc1ccccc1)n1cc(CN2CCC(O)(c3ccc(Cl)c(C(F)(F)F)c3)CC2)nn1)OC1CCCC1,fluorescence,,~5 µM
CCCCCCCCCCCCCCCC(=O)N[C@@H](Cc1ccc(O)cc1)C(=O)N[C@@H](CCC(=O)O)C(=O)N[C@@H](CC(C)C)C(=O)O,fluorescence,,0.15 µM
Cc1ccccc1CNC(=O)[C@H]1N(C(=O)[C@@H](O)[C@H](Cc2ccc3c(c2)OCO3)NC(=O)c2cccc(O)c2C)CSC1(C)C,HPLC,,<0.05 µg/mL
CC[C@H](C)[C@H](NC(=O)[C@H](Cc1ccccc1)NC[C@@H](O)[C@H](Cc1ccccc1)NC(=O)[C@@H](NC(=O)[C@H](CC(C)C)NC(C)=O)C(C)C)C(=O)N[C@H](C(N)=O)C(C)C,fluorescence,,0.005 µM
COC(=O)N[C@H](C(=O)N[C@@H](Cc1ccccc1)[C@@H](O)CN(Cc1ccc(-c2ccccn2)cc1)NC(=O)[C@@H](NC(=O)OC)C(C)(C)C)C(C)(C)C,absorbance,,0.004 µM
COc1ccc(C[C@H](NC(=O)c2cccc(O)c2C)[C@H](O)C(=O)N2CSC(C)(C)[C@H]2C(=O)NCc2ccccc2C)cc1,HPLC,,<0.05 µg/mL
CC(C)(C)NC(=O)[C@@H]1CCCN1C(=O)C(=O)[C@H](Cc1ccccc1)NC(=O)[C@H](CC(N)=O)NC(=O)c1ccc2ccccc2n1,HPLC,,0.044 µM
Cc1cn([C@H]2C[C@H](N=[N+]=[N-])[C@@H](COC(=O)CCCCC(=O)N[C@@H]3CC[C@]4(C)[C@H]5CC=C6[C@@H]7CC(C)(C)CC[C@]7(C(=O)O)CC[C@@]6(C)[C@]5(C)CC[C@H]4C3(C)C)O2)c(=O)[nH]c1=O,HPLC,,1.9 µM
CC(NC(=O)OCc1ccccc1)C(=O)NC(C(=O)NC(Cc1ccccc1)C(=O)NC12NC(=O)C3(O)C4C5CC(C6C5C3C61)C42)C(C)C,absorbance,,0.75 µM
CC1(C)CC[C@]2(C(=O)O)CC[C@]3(C)C(=CC[C@@H]4[C@@]5(C)CC[C@H](OC(=O)CCCCC(=O)O)C(C)(C)[C@@H]5CC[C@]43C)[C@@H]2C1,HPLC,,3 µM
O=C(O)CCCCCCC(=O)O,fluorescence,,>1000 µM

The last 4 rows once more:

smiles,method,setting,result
Cc1cn([C@H]2C[C@H](N=[N+]=[N-])[C@@H](COC(=O)CCCCC(=O)N[C@@H]3CC[C@]4(C)[C@H]5CC=C6[C@@H]7CC(C)(C)CC[C@]7(C(=O)O)CC[C@@]6(C)[C@]5(C)CC[C@H]4C3(C)C)O2)c(=O)[nH]c1=O,HPLC,,1.9 µM
CC(NC(=O)OCc1ccccc1)C(=O)NC(C(=O)NC(Cc1ccccc1)C(=O)NC12NC(=O)C3(O)C4C5CC(C6C5C3C61)C42)C(C)C,absorbance,,0.75 µM
CC1(C)CC[C@]2(C(=O)O)CC[C@]3(C)C(=CC[C@@H]4[C@@]5(C)CC[C@H](OC(=O)CCCCC(=O)O)C(C)(C)[C@@H]5CC[C@]43C)[C@@H]2C1,HPLC,,3 µM
O=C(O)CCCCCCC(=O)O,fluorescence,,>1000 µM